Values from PubChem BioAssay AID504761 (Drosophila RNAi Screening Center, 2011).
Purpose: 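Fly genes whose silencing reduces dengue virus type 2 infection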 (primary screen). Cell system: D.Mel-2 cells from Drosophila. Reagents: long dsRNA against Drosophila genes. Treatment: infection with dengue virus type 2; dose and infection time not stated. Measured: 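Cells stained for dengue envelope protein and imaged; percent of infected cells per well on duplicate plates, ranked by infection, with stained nuclei counted for cell number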. Direction: infection score: higher = more virus-infected cells; cell count: higher = more cells in the well. Call rule: 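Low infection ranks in the two replicates (chance level up to 0.065) followed by a retest with a 1.5-fold or larger significant decrease, p below 0.05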. Calls: active = confirmed: knock-down lowers infection; inactive = not picked or not confirmed.
In all, the deposit lists about 22,000 reagents; shown is an unselected part of those with a known target gene and a result. In the full data, 116 (0.52%) got an active call. 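Calls depend on retest data that are not deposited; infection was ranked per plate without normalising between plates; the unit of the infection score is not given.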 The raw values are shown without normalisation. Not stated in the record: the amount of reagent, the time to read-out.

predicted target | DRSC id | infection score, replicate 1 | infection score, replicate 2 | cell count, replicate 1 | cell count, replicate 2 | call
CG9067 | DRSC07328 | 20.5 | 12.7 | 3673 | 5776 | inactive
CG1774 | DRSC15258 | 1.16 | 1.12 | 5768 | 6586 | inactive
Pi3K21B | DRSC00771 | 2.68 | 6.33 | 6196 | 5922 | inactive
Rpt4 | DRSC18713 | 11.1 | 7.81 | 4043 | 3673 | inactive
Pde8 | DRSC04503 | 10.6 | 13.9 | 7223 | 5931 | inactive
Pde8 | DRSC29684 | 16.3 | 32.4 | 6261 | 5403 | inactive
Rfk | DRSC15454 | 6.46 | 5.03 | 6298 | 6103 | inactive
Rfk | DRSC29260 | 20.2 | 14.5 | 5823 | 5048 | inactive
ZC3H3 | DRSC10696 | 5.47 | 5.87 | 5884 | 5999 | inactive
ZC3H3 | DRSC28763 | – | – | 352 | 377 | inactive
CG31668 | DRSC22584 | 19.2 | 12 | 5409 | 4989 | inactive
Trissin | DRSC14994 | 14.2 | 6.01 | 5760 | 6575 | inactive
hts | DRSC07629 | 1.06 | 1.79 | 6410 | 6304 | inactive
hts | DRSC28097 | 23 | 20.7 | 5614 | 5681 | inactive
Zyx | DRSC17186 | 8.34 | 2.94 | 5913 | 6119 | inactive
CG14683 | DRSC17035 | 14 | 9.68 | 6760 | 6290 | inactive
Cen | DRSC02704 | 12.5 | 10.1 | 6623 | 6526 | inactive
RpL27 | DRSC15638 | 1.8 | 1.48 | 611 | 540 | inactive
RpL27 | DRSC25890 | 3.61 | 3.51 | 4235 | 5066 | inactive

Already shown: 6 of the entries above.
predicted target | DRSC id | infection score, replicate 1 | infection score, replicate 2 | cell count, replicate 1 | cell count, replicate 2 | call
CG31668 | DRSC22584 | 19.2 | 12 | 5409 | 4989 | inactive
Trissin | DRSC14994 | 14.2 | 6.01 | 5760 | 6575 | inactive
hts | DRSC07629 | 1.06 | 1.79 | 6410 | 6304 | inactive
hts | DRSC28097 | 23 | 20.7 | 5614 | 5681 | inactive
Zyx | DRSC17186 | 8.34 | 2.94 | 5913 | 6119 | inactive
CG14683 | DRSC17035 | 14 | 9.68 | 6760 | 6290 | inactive

Continued.
predicted target | DRSC id | infection score, replicate 1 | infection score, replicate 2 | cell count, replicate 1 | cell count, replicate 2 | call
Tsen2 | DRSC01557 | 5.2 | 4.07 | 6362 | 5975 | inactive
Tsen2 | DRSC27827 | 28.4 | 17.9 | 5882 | 6163 | inactive
CG3108 | DRSC18280 | 8.61 | 10 | 581 | 6251 | inactive
Topors | DRSC06531 | 7.33 | 7.55 | 5266 | 6268 | inactive
CG3483 | DRSC04371 | 37.3 | 30.1 | 6478 | 6133 | inactive
CG13082 | DRSC02186 | 12.6 | 2.84 | 5668 | 879 | inactive
CG13082 | DRSC26734 | 8.76 | 7.85 | 6096 | 7008 | inactive
CG3776 | DRSC04417 | 17 | 14 | 6035 | 1073 | inactive
lncRNA:CR32658 | DRSC19402 | 6.54 | 7.75 | 6407 | 6854 | inactive
lncRNA:CR32658 | DRSC26860 | 11.8 | 5.39 | 6423 | 6638 | inactive
CG11529 | DRSC09839 | 0.51 | 1.62 | 6647 | 6341 | inactive
Egm | DRSC07319 | 17.3 | 7.93 | 5516 | 6548 | inactive
Egm | DRSC22860 | 5.93 | 1.77 | 5883 | 6553 | inactive
CG32625 | DRSC18994 | 0.8 | 1.96 | 5908 | 6575 | inactive
CG32625 | DRSC28080 | 5.42 | 26.2 | 6938 | 5971 | inactive
Ptp4E | DRSC18701 | 5.32 | 3.68 | 5849 | 6270 | inactive
CG32280 | DRSC08024 | 1.32 | 4.13 | 6135 | 5548 | inactive
CG10063 | DRSC09688 | 3.26 | 4.06 | 6137 | 5395 | inactive
CG10063 | DRSC28872 | 12.1 | 2.91 | 3820 | 1824 | inactive
Tsp47F | DRSC07325 | 6.12 | 8.08 | 6188 | 6298 | inactive
